Measured values from several laboratories, pooled; numbers as filed in NIAID ChemDB.

Common to all: host cell toxicity; cell line: VERO; read-out: CC50

Neighbouring rows are from separate reports.

compound	result
O=c1c2cnn(-c3ccccc3)c2nc(Nc2ccccc2)n1/N=C/c1ccc(Cl)cc1	220 µg/mL
CC1=CC(=O)c2c(O)cccc2C1=O	3.73 µg/mL
NC(=O)c1cn(-c2ccc(F)cc2)c2cc(Br)ccc2c1=O	>6.25 µg/mL
S=C(S)NCCCNC(=S)S	0.35 µg/mL
CCCCCc1cc2cn(COCCO)c(=O)nc2o1	3.1 µM
Nc1ccn([C@H]2CS[C@@H](CO)O2)c(=O)n1	>100 µM
NC(=O)c1cn([C@@H]2C[C@H](CO)C[C@H]2O)nn1	>100 µM
CC(=O)c1cn(C/C=C/C(O)CO)c(=O)[nH]c1=O	>100 µM
Nc1nc2c(ncn2C[C@H]2CC[C@@H](CO)C2)c(=O)[nH]1	≥400 µg/mL
COC(=O)c1cn([C@@H]2C[C@H](CCP(=O)(O)O)C[C@H]2O)nn1	>100 µM
Nc1nc2c(nnn2C[C@H]2CC[C@@H](CO)C2)c(=O)[nH]1	≥400 µg/mL
Cc1ccc2c(c1)COP(=O)(OCCOCn1cnc3c(=O)[nH]c(N)nc31)O2	>314 µM
CCOC(=O)CCc1ccccc1O[P@@](=O)(N[C@@H](C)C(=O)OC(C)C)OC[C@H]1O[C@@H](n2cnc3c(N)nc(N)nc32)[C@](C)(O)[C@@H]1O	>100 µM
CCCOc1ccc(Nc2cc(C)nc3ccc(Cl)cc23)cc1	>120 µM
CCCC1(CN2c3ccccc3Sc3ccccc32)CCN(CC)C1.Cl	3.53 µg/mL
Cc1ccc(-n2cc(C(N)=O)c(=O)c3ccc(-c4ccncc4)cc32)cc1	>25 µg/mL
CC1=C(C)C(CO)(CO)C[C@H]1n1ccc(N)nc1=O	>100 µg/mL
N=C(N)c1cn([C@@H]2O[C@H](CO)[C@@H](O)[C@@H]2O)c2ncnc(N)c12	>100 µM
C/C(=N\NC(=O)c1ccncc1)c1ccc(F)cc1	>62.5 µg/mL
CCCCCCCCc1cc2cn(CC=C(CO)CO)c(=O)nc2o1	78.9 µM
Nc1ncnc2c1ccn2[C@@H]1O[C@H](CO)[C@@H](O)[C@H]1O	0.4 µg/mL
CCn1cc(C(=O)NCCN(C)C)c(=O)c2ccc(-c3ccncc3)cc21	>100 µg/mL
C/C(=C\c1c(C)[nH]c2ccccc12)[N+](=O)[O-]	1.6 µg/mL
C/C=C1\[C@H](OC2O[C@H](CO)[C@@H](O)[C@H](O)[C@H]2O)OC=C(C(=O)O)[C@H]1CC(=O)OCC(OCC)c1ccc(O)c(O)c1	166.7 µM
C[C@]1(/C=C/P(=O)(O)O)CO[C@@H](n2cnc3c(=O)[nH]c(N)nc32)C1	>100 µM
CCn1cc2c(=O)n(-c3ccccc3)nc-2c2ccc(-c3ccncc3)cc21	>100 µg/mL
CCCCCc1ccc(C#Cc2cn(COCCO)c(=O)[nH]c2=O)cc1	7.9 µM
Cc1ccc(NCCNCCO)c2c(=O)c3ccccc3sc12	5.69 µg/mL
Nc1nc2c(ncn2[C@H]2C[C@@]23C[C@H]3CO)c(=O)[nH]1	>100 µM
O=c1c2cnn(-c3ccccc3)c2nc(Nc2ccccc2)n1/N=C/c1ccc(F)cc1	150 µg/mL
CCn1cc(C2=NCCN2)c(=O)c2ccc(-c3ccncc3)cc21	>100 µg/mL
Nc1nc(Cl)c2nnn(C[C@H]3CC[C@@H](CO)C3)c2n1	≥400 µg/mL
CCCCCCCCc1cc2cn(C/C=C/C(O)CO)c(=O)nc2o1	14.9 µM
O=c1c2cnn(-c3ccccc3)c2nc2n(-c3ccccc3)c(=S)[nH]n12	220 µg/mL
O=C1NC(=O)c2c1c1c([nH]c3cccc(F)c31)c1[nH]c3cccc(F)c3c21	>125 µM
Oc1cc(O)c2c(c1)O[C@H](c1ccc(O)c(O)c1)[C@@H](O)C2	>50 µg/mL
O=S(=O)(O)c1ccc(-c2c3nc(c(-c4ccc(S(=O)(=O)O)cc4)c4ccc([n-]4)c(-c4ccncc4)c4ccc([n-]4)c(-c4ccc(S(=O)(=O)O)cc4)c4nc2C=C4)C=C3)cc1.[Na+]	0.4 µM
CCCCC1=NCCc2c1cc1c([nH]c3ccccc31)c2C	1.8 µg/mL
CC1=C(C2=C(C)C(=O)c3cccc(O)c3C2=O)C(=O)c2c(O)cccc2C1=O	608 µg/mL
CCOC(=O)CCc1ccccc1O[P@](=O)(N[C@@H](C)C(=O)OC(C)C)OC[C@H]1O[C@@H](n2cnc3c(N)nc(N)nc32)[C@](C)(O)[C@@H]1O	>100 µM
NC(=O)c1cn([C@H]2C[C@H](O)[C@@H](CO)O2)c2ncnc(N)c12	12 µM
COC(=O)c1cn([C@@H]2C[C@H](CO)C[C@H]2O)nn1	>100 µM
CCn1c(C)c(C(N)=O)c(=O)c2ccc(-c3ccncc3)cc21	>50 µg/mL
Cc1[nH]c2ccccc2c1/C=N/Nc1ccccc1	>10 µg/mL
Cc1cc(-c2ccc3c(=O)c(C(N)=O)cn(-c4ccc(F)cc4)c3c2)sn1	>100 µg/mL
Nc1nc2c(ncn2[C@H]2C[C@]23C[C@@H]3CO)c(=O)[nH]1	>100 µM
OC[C@@H]1O[C@@H](n2cnc3c(Cl)ncnc32)CS1	>32.7 µM
Oc1ccccc1O	14.5 µg/mL
O=C(N/N=C(\c1ccccc1)c1ccc(O)cc1O)c1ccncc1	414 µg/mL
O=C1NC(=O)[C@@H](c2c[nH]c3ccccc23)[C@H]1c1c[nH]c2ccccc12	143 µM
COC(=O)[C@H](C)NP(=O)(OC[C@@H]1C[C@]12C[C@@H]2n1cnc2c(N)ncnc21)Oc1ccccc1	27 µM
Cc1cn([C@H]2C[C@H](N=[N+]=[N-])[C@@H](CO)O2)c(=O)[nH]c1=O	>100 µM
CC(=O)c1cn(CC=C(CO)CO)c(=O)[nH]c1=O	>100 µM
Nc1nc(=O)n([C@@H]2O[C@H](CO)[C@@H](O)[C@@H]2F)cc1I	5 µM
CCN(CCO)CCNc1ccc(CO)c2sc3cc(Cl)ccc3c(=O)c12	1.53 µg/mL
Oc1ccccc1-c1c2nc(c(-c3ccccc3O)c3ccc([nH]3)c(-c3ccccc3O)c3nc(c(-c4ccccc4O)c4ccc1[nH]4)C=C3)C=C2	5.3 µM
N/C(=N/O)c1cn([C@@H]2O[C@H](CO)[C@@H](O)[C@@H]2O)c2ncnc(N)c12	>100 µM
FC(F)(F)c1ccc2c(c1)N(CCCN1CCN(CCC3OCCCO3)CC1)c1ccccc1S2	7.4 µg/mL
O=c1nc2oc(-c3ccccc3)cc2cn1COCCO	63.1 µM
O=c1cc(-c2ccccc2)oc2cc(O)cc(O)c12	>50 µg/mL
CCOC(=O)[C@H](C)NP(=O)(OC[C@H]1O[C@@H](n2cnc3c(N)nc(N)nc32)[C@](C)(O)[C@@H]1O)Oc1ccccc1CCC(=O)OC(C)C	>100 µM
NC(=O)c1cn([C@@H]2O[C@H](CO)[C@@H](O)[C@@H]2O)c2ncnc(N)c12	40 µM
Oc1cc(O)c2c(c1)O[C@H](c1ccc(O)c(O)c1)[C@H](O)C2	>50 µg/mL
Nc1nc2c(ncn2CCC(CO)COP2(=O)OCc3ccccc3O2)c(=O)[nH]1	>294 µM
COC(=O)[C@H](C)NP(=O)(OC[C@@H]1C[C@]12C[C@@H]2n1cnc2c(N)ncnc21)Oc1ccccc1	27 µM
CCOC(=O)CCc1ccccc1O[P@](=O)(N[C@@H](C)C(=O)OCC)OC[C@H]1O[C@@H](n2cnc3c(N)nc(N)nc32)[C@](C)(O)[C@@H]1O	>100 µM
CC1=C(O)c2cccc(O)c2C(=O)C1=O	0.93 µg/mL
Nc1nc(F)nc2c1ncn2[C@@H]1O[C@H](CO)[C@H]1O	201 µg/mL
O=C1C=C(NCCc2ccccc2)c2ccccc2C1=O	4.63 µg/mL
O=c1c2cnn(-c3ccccc3)c2nc2n1N=C(c1ccc(Cl)cc1)CN2c1ccccc1	100 µg/mL
Nc1nc(NC2CC2)c2ncn([C@H]3C=C[C@@H](CO)C3)c2n1	480 µM
CN1C(=O)C2(C)SSC1(C)C(=O)N2C	38.79 µg/mL
CCn1cc(C(N)=O)c(=O)c2ccc(-n3ccnc3)cc21	>50 µg/mL
O=C(Nc1ncc([N+](=O)[O-])s1)c1cccc([N+](=O)[O-])c1	4.44 µg/mL
CC1(C)Oc2cc3oc(-c4cc(O)cc(OC5OC[C@@H](O)[C@H](O)[C@H]5O)c4)cc3cc2CC1O	250 µg/mL
COc1ccc2c(c1)c1c(C)c3cnccc3c(C)c1n2CCCN1C(=O)c2ccccc2C1=O	1.28 µg/mL
Nc1ncnc2c1ncn2[C@H]1C[C@H](F)[C@@H](CO)O1	36 µM
Cc1cccc2c1OP(=O)(OCCOCn1cnc3c(=O)[nH]c(N)nc31)OC2	>314 µM
CC1(C)N=c2cc3c(cc2N1c1ccc(Cl)cc1)=Nc1ccccc1N3c1ccc(Cl)cc1	1.25 µg/mL
O=C(O)P(=O)(O)O	>100 µM
O=C1NC(=O)c2c1c1c3ccc(F)cc3[nH]c1c1[nH]c3cc(F)ccc3c21	58 µM
CC1CCCCN1.CC1CCCCN1C(=S)S	3.5 µg/mL
C[n+]1ccc(C2=C3C=CC(=N3)C(c3ccc(-c4ccccc4)cc3)=C3C=CC(=C(c4cc[n+](C)cc4)C4=NC(=C(c5ccc(-c6ccccc6)cc5)C5=CC=C2[NH2+]5)C=C4)[NH2+]3)cc1.[Cl-]	0.84 µM
C/C=C1\[C@H](OC2O[C@H](CO)[C@@H](O)[C@H](O)[C@H]2O)OC=C(C(=O)O)[C@H]1CC(=O)OCCc1ccc(O)cc1	250 µM
Cc1cc2c(cc1C)[n+](=O)c(C#N)c(-c1ccc(F)cc1)n2[O-]	>100 µg/mL
CO[C@@]12[C@H](COC(N)=O)C3=C(C(=O)C(C)=C(N)C3=O)N1C[C@H]1[C@@H]2N1C(=O)C1N2C(=O)[C@@H](NC(=O)Cc3ccccc3)[C@H]2SC1(C)C	<0.41 µg/mL
CCCCCc1ccc(-c2cc3cn(CC=C(CO)CO)c(=O)nc3o2)cc1	8.7 µM
S=C(Nc1ccccc1)c1ccccn1	>10 µg/mL
CC1=C(C)[C@](CO)(c2ccccc2)C[C@H]1n1cnc2c(N)ncnc21	>100 µg/mL
CC(C)O/N=C/c1cc(NC(=S)OC(C)C)ccc1Cl	>10 µg/mL
Nc1nc2c(ncn2[C@H]2C[C@@]23C[C@@H]3CO)c(=O)[nH]1	>100 µM
O=C1NC(=O)c2c1c1c3cc(Cl)ccc3[nH]c1c1[nH]c3ccc(Cl)cc3c21	>125 µM
CCN(CC)CCNc1ccc(COC(=O)NC)c2sc3ccccc3c(=O)c12	0.85 µg/mL
C/C=C1\[C@H](OC2O[C@H](CO)[C@@H](O)[C@H](O)[C@H]2O)OC=C(C(=O)OC)[C@H]1CC(=O)OCC1O[C@H](OCCc2ccc(O)c(O)c2)[C@@H](O)[C@H](O)[C@H]1O	291.7 µM
Nc1ccn([C@@H]2CS[C@H](CO)O2)c(=O)n1	>100 µM
Cc1nc([N+](=O)[O-])cn1-c1ccc(Cl)cc1	>62.5 µg/mL
Oc1cc(O)c2c(c1)O[C@H](c1cc(O)c(O)c(O)c1)[C@@H](O)C2	>80 µg/mL
Nc1nc(N)c2nnn(C[C@H]3CC[C@@H](CO)C3)c2n1	≥200 µg/mL

6 of the rows above, restated:

{"compound": "Nc1nc2c(ncn2[C@H]2C[C@@]23C[C@H]3CO)c(=O)[nH]1", "result": ">100 µM"}
{"compound": "CCOC(=O)CCc1ccccc1O[P@@](=O)(N[C@@H](C)C(=O)OC(C)C)OC[C@H]1O[C@@H](n2cnc3c(N)nc(N)nc32)[C@](C)(O)[C@@H]1O", "result": ">100 µM"}
{"compound": "CCCC1(CN2c3ccccc3Sc3ccccc32)CCN(CC)C1.Cl", "result": "3.53 µg/mL"}
{"compound": "CCN(CC)CCNc1ccc(COC(=O)NC)c2sc3ccccc3c(=O)c12", "result": "0.85 µg/mL"}
{"compound": "O=C1NC(=O)c2c1c1c3ccc(F)cc3[nH]c1c1[nH]c3cc(F)ccc3c21", "result": "58 µM"}
{"compound": "Cc1nc([N+](=O)[O-])cn1-c1ccc(Cl)cc1", "result": ">62.5 µg/mL"}

CCn: concentration that lowers growth or viability of the cells by n%.